Anti-infective test results gathered from many reports (values: NIAID ChemDB through PubChem).

Shared fields: tests in culture

a–b is a range or a potency band. Rows are shuffled and stem from different studies. Blank or dashed fields: not listed here. MIC50, MIC90 and the like: level of inhibition, or share of isolates inhibited. Zone: diameter of growth inhibition.

| SMILES | dose | strain or isolate | agent | measure | method | value |
|---|---|---|---|---|---|---|
| CC(=O)OC[C@H]1O[C@@H](n2[nH]c(-c3cccnc3)nc2=S)[C@H](OC(C)=O)[C@@H](OC(C)=O)[C@@H]1OC(C)=O | 5 mg/mL | - | Aspergillus fumigatus | zone | agar diffusion / agar | 1–5 mm |
| C[C@@H]1[C@H](O)[C@@H](C)/C=C/C=C/CC/C=C/C=C/C=C/C=C/C(O[C@H]2O[C@H](C)[C@@H](O)[C@H](N)[C@@H]2O)CC2O[C@](O)(CC(O)C(O)CCC(O)CC(O)CC(O)CC(=O)O[C@H]1C)CC(O)C2C(=O)O | - | MTCC 4893 | Aspergillus ochraceus | MIC100 | broth dilution | 250 µg/mL |
| O=C1NC2CC1C1OC21 | - | AM211 | Aspergillus glaucus | MIC | - | 107.1 µg/mL |
| CNC1=CC(=O)c2ccccc2C1=O | - | MTCC 4893 | Aspergillus ochraceus | MIC100 | broth dilution | 125 µg/mL |
| Clc1nc(NC2CC2)nc(N2CCN(c3ccccn3)CC2)n1 | - | MTCC 1323 | Aspergillus clavatus | MIC | agar | 50 µg/mL |
| COc1ccc(Cn2nc(C3CC3)cc2NC(=O)c2ccc(F)cc2F)cc1 | - | - | Aspergillus ochraceus | MIC | - | 24 µg/mL |
| CN1CCN(c2nc(NCCNc3ncnc4c(Br)cc(Br)cc34)nc(NC3CC3)n2)CC1 | - | MTCC 1323 | Aspergillus clavatus | MIC | agar | 100 µg/mL |
| O=C1C(=O)c2ccccc2-c2ccccc21 | - | KACC 44823 | Aspergillus oryzae | MIC | visual reading | 40 µg/mL |
| C[C@@H]1[C@H](O)[C@@H](C)/C=C/C=C/CC/C=C/C=C/C=C/C=C/C(O[C@H]2O[C@H](C)[C@@H](O)[C@H](N)[C@@H]2O)CC2O[C@](O)(CC(O)C(O)CCC(O)CC(O)CC(O)CC(=O)O[C@H]1C)CC(O)C2C(=O)O | - | MTCC 1323 | Aspergillus clavatus | MIC | broth dilution | 100 µg/mL |
| C[C@@H](c1ncncc1F)[C@](O)(Cn1cncn1)c1ccc(F)cc1F | - | NFI 0239 | Aspergillus fumigatus | MIC | - | 1 µg/mL |
| Cc1cc(CBr)nc(Nc2ccccc2)n1 | 1000 µg/mL | - | Aspergillus niger | zone | - | 2.2 mm |
| O=C1NCC2CCCCC12 | - | AM211 | Aspergillus glaucus | MIC | - | 250 µg/mL |
| Fc1ccc(N2CCN(c3nc(Cl)nc(NC4CC4)n3)CC2)cc1 | - | MTCC 1323 | Aspergillus clavatus | MIC | agar | 100 µg/mL |
| COc1ccc(Cn2nc(C3CC3)cc2NC(=O)c2cccc(OC)c2)cc1 | - | - | Aspergillus ochraceus | MIC | - | 22 µg/mL |
| OC(Cn1cncn1)(Cn1cncn1)c1ccc(F)cc1F | - | NFI 0239 | Aspergillus fumigatus | MIC | - | >128 µg/mL |
| O=C1C=C(N2CCOCC2)C(=O)c2ccccc21 | - | MTCC 2797 | Aspergillus parasiticus | MIC100 | broth dilution | 125 µg/mL |
| CC(C)N1CCN(c2nc(Cl)nc(NC3CC3)n2)CC1 | - | MTCC 1323 | Aspergillus clavatus | MIC | agar | 100 µg/mL |
| O=C1OCC2CC=CCC12 | - | AM211 | Aspergillus glaucus | MIC | - | >350 µg/mL |
| Cc1ccc(N2NOC(=O)C2S(=O)(=O)Nc2ccc(-n3c(-c4ccccc4)nc4ccccc4c3=O)cc2)cc1 | - | MTCC323 | Aspergillus clavatus | MIC | broth dilution | 250 µg/mL |
| CCCCC1(CCCC)OC(=O)C2CCCCC21 | - | AM211 | Aspergillus glaucus | MIC | - | 238.6 µg/mL |
| Clc1nc(NC2CC2)nc(N2CCN(C(c3ccccc3)c3ccccc3)CC2)n1 | - | MTCC 1323 | Aspergillus clavatus | MIC | agar | 200 µg/mL |
| Cc1nc(Nc2ccccc2)nc2c1C(=N)C(C#N)CN(Cc1ccccc1)C2 | 50 µg/mL | - | Aspergillus niger | zone | - | 1.02 mm |
| Cc1ccc(N2NOC(=O)C2S(=O)(=O)Nc2nc3cc(C)ccc3s2)cc1 | 250 µg/mL | MTCC323 | Aspergillus clavatus | zone | agar diffusion | 24 mm |
| O=C1C=C(NCCN2CCOCC2)C(=O)c2ccccc21 | - | MTCC 2797 | Aspergillus parasiticus | MIC100 | broth dilution | 125 µg/mL |
| CC(=O)OC[C@H]1O[C@@H](Sc2nnc(-c3cccnc3)n2/N=C/c2ccc(C)cc2)[C@H](OC(C)=O)[C@@H](OC(C)=O)[C@@H]1OC(C)=O | 2.5 mg/mL | - | Aspergillus fumigatus | zone | agar diffusion / agar | 1–5 mm |
| Cc1ccc(N2NOC(=O)C2S(=O)(=O)Nc2nc(-c3c(Cl)cccc3Cl)cs2)cc1 | - | MTCC323 | Aspergillus clavatus | MIC | broth dilution | 500 µg/mL |
| CC(=O)OC[C@H]1O[C@@H](n2nc(-c3cccnc3)n(/N=C/c3ccc(Cl)cc3)c2=S)[C@H](OC(C)=O)[C@@H](OC(C)=O)[C@@H]1OC(C)=O | 1 mg/mL | - | Aspergillus fumigatus | zone | agar diffusion / agar | 0 mm |
| COc1ccc(Cn2nc(C3CC3)cc2NC(=O)c2ccc(Cl)cc2Cl)cc1 | - | - | Aspergillus ochraceus | MIC | - | 9 µg/mL |
| COc1ccc(/C=N/[n+]2c(-c3ccccc3)[nH]n([C@@H]3O[C@H](COC(C)=O)[C@@H](OC(C)=O)[C@H](OC(C)=O)[C@H]3OC(C)=O)c2=S)cc1 | 2.5 mg/mL | - | Aspergillus fumigatus | zone | agar diffusion / agar | 1–5 mm |
| Clc1ccc(C(c2ccccc2)N2CCN(c3nc(Cl)nc(NC4CC4)n3)CC2)cc1 | - | MTCC 1323 | Aspergillus clavatus | MIC | agar | 100 µg/mL |
| CC(=O)OC[C@H]1O[C@@H](Sc2nnc(-c3cccnc3)n2/N=C/c2ccccc2)[C@H](OC(C)=O)[C@@H](OC(C)=O)[C@@H]1OC(C)=O | 5 mg/mL | - | Aspergillus fumigatus | zone | agar diffusion / agar | 6–10 mm |
| CC(=Nc1cccc(Br)c1)c1cc(C(C)=Nc2cccc(Br)c2)c(O)cc1O | - | MTCC 1323 | Aspergillus clavatus | MIC | broth dilution | 500 µg/mL |

4 of the rows above, restated:

{"SMILES": "O=C1C=C(NCCN2CCOCC2)C(=O)c2ccccc21", "strain or isolate": "MTCC 2797", "agent": "Aspergillus parasiticus", "measure": "MIC100", "method": "broth dilution", "value": "125 µg/mL"}
{"SMILES": "COc1ccc(Cn2nc(C3CC3)cc2NC(=O)c2ccc(F)cc2F)cc1", "agent": "Aspergillus ochraceus", "measure": "MIC", "value": "24 µg/mL"}
{"SMILES": "COc1ccc(Cn2nc(C3CC3)cc2NC(=O)c2cccc(OC)c2)cc1", "agent": "Aspergillus ochraceus", "measure": "MIC", "value": "22 µg/mL"}
{"SMILES": "O=C1C(=O)c2ccccc2-c2ccccc21", "strain or isolate": "KACC 44823", "agent": "Aspergillus oryzae", "measure": "MIC", "method": "visual reading", "value": "40 µg/mL"}